Results of unrelated studies side by side (data: NIAID ChemDB).

All rows: target-level tests; organism: HIV-1; target: Reverse transcriptase; measure: Ki

Conditions beyond the fields shown may differ between rows. An empty or dashed field is not shown.

SMILES	mutations	strain	conditions	read by	value
[B-][P@](=O)(OC[C@H]1O[C@@H](n2cc(C)c(=O)[nH]c2=O)C[C@@H]1N=[N+]=[N-])OP(=O)(O)C(F)(F)P(=O)(O)O	-	-	-	fluorescence	0.0095 µM
Cc1ccc2c(c1)n(CCNC(=S)Nc1ccc(Br)cn1)c(=O)c1cccn12	RT-Y188L	-	-	nucleotide incorporation	0.5 µM
C[C@H](NC(=S)Nc1ccc(Cl)cn1)c1cccc2ccccc12	-	-	-	-	>100 µM
Cc1cc(C)cc(C(=O)c2cc(Cl)ccc2OCCN2CCC(=O)NC2=O)c1	V106A	-	pseudotyped	RT activity	>240 µM
O=C1c2cccnc2C(=O)N1CCNC(=S)Nc1ccc(Br)cn1	-	-	-	nucleotide incorporation	0.019 µM
O=C(O)Cn1cnc2c(=O)[nH]c(NC(=O)OCc3ccccc3)nc21	K103N	NNRTI-resistant	-	nucleotide incorporation / radiometric	38.6 µM
Fc1ccc(CCNC(=S)Nc2ccc(Br)cn2)cc1	-	-	-	nucleotide incorporation	7.8 µM
CC(C)=CCN1Cc2cccc3[nH]c(=S)n(c23)C[C@@H]1C	RT-Q161L	-	-	-	0.89 µM
Nc1ccn([C@H]2CC[C@@H](COP(=O)(O)OP(=O)(O)OP(=O)(O)O)O2)c(=O)n1	RT-A62V V75I F77L F116Y Q151M	-	-	nucleotide incorporation / radiometric	1.4 µM
Cc1cn([C@H]2C=C[C@@H](COP(=O)(O)OP(=O)(O)OP(=O)(O)O)O2)c(=O)[nH]c1=O	RT-WT	-	-	RT activity	0.02 µM
O=c1c(O)c(-c2ccc(O)c(O)c2)oc2cc(O)cc(O)c12	-	-	-	nucleotide incorporation	0.52 µM
O=c1c2cccn2ccn1CCNC(=S)Nc1ccc(Br)cn1	RT-Y188L	-	-	nucleotide incorporation	0.61 µM
Oc1ccc(CCNC(=S)Nc2ccc(Br)cn2)cc1	-	-	-	nucleotide incorporation	104 µM
Nc1nc2c(ncn2[C@H]2C=C[C@@H](COP(=O)(O)OP(=O)(O)OP(=O)(O)O)C2)c(=O)[nH]1	-	-	-	fluorescence	0.037 µM
C[C@@H](CNC(=S)Nc1ccccn1)C1CCCCC1	-	-	-	-	>100 µM
Cc1ccc(CCNC(=S)Nc2ccc(Br)cn2)cc1	-	-	-	nucleotide incorporation	0.25 µM
CC(=O)Oc1ccc(OC(C)=O)c(C[C@@]2(C)C3CCC[C@@](C)(CC[C@@]4(C)C5=CCCC(C)(C)[C@H]5CC[C@@H]4C)C3=CC[C@H]2C)c1	-	-	-	nucleotide incorporation / radiometric	26 µM
[B-][P@](=O)(OC[C@H]1O[C@@H](n2cc(C)c(=O)[nH]c2=O)C[C@@H]1N=[N+]=[N-])OP(=O)(O)C(F)(F)P(=O)(O)O	-	-	-	fluorescence	0.0096 µM
Cc1cn([C@H]2C=C[C@@H](COP(=O)(O)OP(=O)(O)OP(=O)(O)O)O2)c(=O)[nH]c1=O	RT-K65R	-	-	nucleotide incorporation / radiometric	0.78 µM
Cc1csc(NC(=S)N[C@@H](C)c2cccc3ccccc23)n1	-	-	-	-	>100 µM
Nc1ncnc2c1ncn2CCOCP(=O)(O)OP(=O)(O)OP(=O)(O)O	-	HXB2D	-	nucleotide incorporation	0.07 µM
Cc1cn([C@H]2CC[C@@H](COP(=O)(O)OP(=O)(O)OP(=O)(O)O)O2)c(=O)[nH]c1=O	-	-	-	-	3.2 µM
C[C@H](NC(=S)Nc1ccccn1)c1cccc2ccccc12	-	-	-	-	>100 µM
O=C(O)c1c[nH]c2ccc(Cl)cc2c1=O	-	-	-	nucleotide incorporation / radiometric	5.3 µM
Cc1cc(C)cc(C(=O)c2cc(Cl)ccc2OCCN2C(=O)NC(=O)C(C)C2C)c1	K103N + Y181C	-	pseudotyped	RT activity	8.6 µM
Nc1ncnc2c1ncn2[C@H]1CC[C@@H](COP(=O)(O)OP(=O)(O)OP(=O)(O)O)O1	RT-M184V	-	-	nucleotide incorporation / radiometric	0.22 µM
Nc1ccn([C@@H]2CS[C@H](COP(=O)(O)OP(=O)(O)OP(=O)(O)O)O2)c(=O)n1	RT-P157S	-	-	-	2.3 µM
Cc1cn([C@H]2C=C[C@@H](COP(=O)(O)OP(=O)(O)OP(=O)(O)O)O2)c(=O)[nH]c1=O	RT-M184V	-	-	-	200 µM
O=c1c2cccn2c2ccccc2n1CCNC(=S)Nc1ccc(Br)cn1	RT-Y181I	-	-	nucleotide incorporation	4 µM
Cc1cn([C@H]2CC[C@@H](COP(=O)(O)OP(=O)(O)OP(=O)(O)O)O2)c(=O)[nH]c1=O	-	-	-	fluorescence	0.0052 µM
Nc1ncnc2c1ncn2[C@H]1CC[C@@H](COP(=O)(O)OP(=O)(O)OP(=O)(O)O)O1	-	HXB2D	-	nucleotide incorporation	0.29 µM
S=C(NCCc1ccc(Cl)cc1)Nc1ccc(Br)cn1	-	-	-	scintillation proximity	4.7 µM
Cc1cc(C)nc(NC(=S)N[C@@H](C)c2cccc3ccccc23)c1	-	-	-	-	>100 µM
Cc1cn([C@H]2C[C@H](N=[N+]=[N-])[C@@H](COP(=O)(O)OP(=O)(O)C(F)(F)P(=O)(O)O)O2)c(=O)[nH]c1=O	-	-	-	RT activity	2.23 µM
Cc1cn([C@H]2C=C[C@@H](COP(=O)(O)OP(=O)(O)OP(=O)(O)O)O2)c(=O)[nH]c1=O	-	-	-	-	0.0492 µM
Cc1cn([C@H]2C[C@H](N=[N+]=[N-])[C@@H](CO[P@](=O)([Se-])OP(=O)(O)C(F)(F)P(=O)(O)O)O2)c(=O)[nH]c1=O	-	-	-	fluorescence	0.064 µM
Cc1c(C(C)c2c(F)cccc2F)nc(N(C)C)[nH]c1=O	RT-K103N	-	-	nucleotide incorporation / radiometric	0.7 µM
Nc1ccn([C@H]2O[C@@H](COP(=O)(CP(=O)(O)O)OP(=O)(O)O)C(O)[C@H]2O)c(=O)n1	-	-	-	RNase H	225 µM
Nc1ncnc2c1ncn2CCOCP(=O)(O)OP(=O)(O)OP(=O)(O)O	-	-	-	nucleotide incorporation / radiometric	0.09 µM
C[C@H](CNC(=S)Nc1ccccn1)C1CCCCC1	-	-	-	-	>100 µM
CCOCn1c(Cc2ccccc2)c(C(C)C)c(=O)[nH]c1=O	-	IIIB	-	RT activity	0.08 µM
Cc1cn([C@@H]2CC[C@H](COP(=O)(O)OP(=O)(O)OP(=O)(O)O)O2)c(=O)[nH]c1=O	-	-	-	-	110 µM
S=C(NCCc1ccc(Br)cc1)Nc1ccc(Br)cn1	-	-	-	scintillation proximity	6.3 µM
Nc1ccn([C@@H]2CS[C@H](COP(=O)(O)OP(=O)(O)OP(=O)(O)O)O2)c(=O)n1	-	-	-	fluorescence	0.188 µM